Anti-infective test results gathered from many reports (values: NIAID ChemDB through PubChem).

All rows: tests in culture; species: Human cytomegalovirus; cell line: HFF; endpoint: EC50

An empty or dashed field is not shown.

compound,strain,method,result
Nc1nc2c(ncn2/C=C2/CC2(CO)CO)c(=O)[nH]1,VR 4955 (ganciclovir- foscarnet-resistant),plaque count,1.7 µM
CCCCCCCCCCCCCCCCCCOC[C@H](COP(=O)(O)CO[C@H](CO)Cn1ccc(N)nc1=O)OCc1ccccc1,C8914-6,plaque count,0.02 µM
CCCCCCCCCCCCCCCCOCCCOP(=O)(O)CO[C@H](CO)Cn1ccc(N)nc1=O,AD169,plaque count,0.0009 µM
Nc1nc(Cl)c2ncn(/C=C3/C[C@H]3CO)c2n1,AD169,cytopathic effect,5.4 µM
CC(C)Nc1nc2cc(Cl)c(Cl)cc2n1[C@H]1O[C@@H](CO)[C@H](O)[C@@H]1O,R56 (BDCRB-resistant),plaque count,86 µM
CCCCCCCCCCCCCCCCCCOCCCOP1(=O)CO[C@@H](Cn2ccc(N)nc2=O)CO1,AD169,plaque count,0.006 µM
CC(C)Nc1nc2cc(Cl)c(Cl)cc2n1[C@H]1O[C@@H](CO)[C@H](O)[C@@H]1O,AD169,virus yield,0.19 µM
Nc1nc2c(ncn2C[C@@H]2CC[C@@H](P(=O)(O)O)O2)c(=O)[nH]1,AD169,plaque count,0.08 µg/mL
CCCCCCCCCCCCOCCCOP(=O)(O)CO[C@H](CO)Cn1ccc(N)nc1=O,Toledo,plaque count,0.03 µM
O[C@@H]1[C@H](O)CO[C@H]1n1c(Cl)nc2cc(Cl)c(Cl)cc21,TOWNE,plaque count,0.61 µM
Nc1nc2c(ncn2COC(CO)CO)c(=O)[nH]1,GDGRP53 (drug-resistant),plaque count,62.8 µM
O=C(Nc1ccn([C@@H]2CC(O)(CO)CO2)c(=O)n1)c1ccccc1,AD169,-,>100 µM
COc1ccccc1CNC(=O)C1=Cc2ccncc2CC1,D-10 C4,plaque count,6.2 µM
Nc1nc(NC2CC2)c2ncn(C=C3CC3CO)c2n1,C8914-6,plaque count,4.4 µM
Nc1nc2c(ncn2COC(CO)CO)c(=O)[nH]1,C4 (BDCRB-resistant),virus yield,<1.6 µM
CCCCCCCCCCCCCCCCOP(=O)(O)CO[C@H](CO)Cn1ccc(N)nc1=O,Coffman,plaque count,0.01 µM
CC1(C)OCC2(CO[C@@H](n3ccc(=O)[nH]c3=O)C2)O1,AD169,-,>100 µM
C[C@H]1O[C@@H](n2c(Cl)nc3cc(Cl)c(Cl)cc32)[C@H](O)C1O,TOWNE,plaque count,0.58 µM
Cn1cc(C(=O)NCc2ccc(Cl)cc2)c(=O)c2cc(CN3CCOCC3)ccc21,WA,plaque count,1.2 µM
Nc1nc(NCc2ccccc2)c2ncn(/C=C3/C[C@@H]3CO)c2n1,AD169,plaque count,>310 µM
Nc1ccn(C[C@@H](CO)OCP(=O)(O)O)c(=O)n1,AD169,plaque count,0.4 µM
O=C(NCc1ccc(Cl)cc1)c1cn2c3c(cc(CN4CCOCC4)cc3c1=O)OC(c1cccnc1)C2,C8708/17-1-1,plaque count,3.9 µM
CC1(C)OCC2(CO[C@H](n3ccc(NC(=O)c4ccccc4)nc3=O)C2)O1,AD169,-,>100 µM
O[C@@H]1[C@H](O)[C@H](O)CO[C@H]1n1c(Br)nc2cc(Cl)c(Cl)cc21,VR4955R (drug-resistant),plaque count,3.5 µM
Nc1nc(NCCO)c2ncn(/C=C3/C[C@@H]3CO)c2n1,AD169,plaque count,>72 µM
OC[C@H]1O[C@@H](n2c(Br)nc3cc(Cl)c(Cl)cc32)[C@H](O)[C@@H]1O,D10 (BDCRB- and maribavir-resistant),plaque count,11.8 µM
CCCCCCCCCCCCCCCCCCOCCOP1(=O)CO[C@@H](Cn2ccc(N)nc2=O)CO1,AD169,plaque count,0.0427 µM
CCCCCCCCCCCCOCCCOP1(=O)CO[C@@H](Cn2ccc(N)nc2=O)CO1,AD169,plaque count,0.007 µM
CCCCCCCC/C=C\CCCCCCCOCCCOP(=O)(O)CO[C@H](CO)Cn1ccc(N)nc1=O,AD169,plaque count,0.0015 µM
C[C@H]1O[C@@H](n2c(Br)nc3cc(Cl)c(Cl)cc32)[C@H](O)[C@@H]1O,TOWNE,plaque count,0.06 µM
CCCCCCCCCCCCOCCCOP1(=O)CO[C@@H](Cn2ccc(N)nc2=O)CO1,AD169,plaque count,0.0065 µM
Cn1cc(C(=O)NCc2ccc(Cl)cc2)c(=O)c2cc(CN3CCOCC3)ccc21,Toledo,plaque count,7.7 µM
Nc1nc2c(ncn2COC(CO)CO)c(=O)[nH]1,AD169,virus yield,1.2 µM
Nc1nc(NC2CC2)c2ncn(/C=C3/C[C@@H]3CO)c2n1,AD169,plaque count,1.9 µM
O=C(NCCc1ccccc1)C1=Cc2ccncc2CC1,TOWNE,virus yield,>34 µM
OC[C@H]1O[C@@H](n2c(Br)nc3cc(Cl)c(Cl)cc32)[C@H](O)[C@@H]1O,C8805/37-1-1 (drug-resistant),plaque count,1.4 µM
CC(C)Oc1ccccc1CNC(=O)c1ccc2cnccc2n1,1117R73-1-2,plaque count,0.04 µM
Nc1nc2c(ncn2C=C2CC2CO)c(=O)[nH]1,AD169,cytopathic effect,0.04 µM
OC[C@H]1O[C@@H](n2c(Br)nc3cc(Cl)c(Cl)cc32)[C@H](O)[C@@H]1O,TOWNE,plaque count,0.37 µg/mL
CCCOc1nc(N)nc2c1ncn2/C=C1/C[C@@H]1CO,AD169,plaque count,2 µM
Cc1cn([C@H]2CC3(CO2)COC(C)(C)O3)c(=O)[nH]c1=O,AD169,-,>100 µM
Nc1nc2c(ncn2/C=C2/C[C@@H]2CO)c(=O)[nH]1,AD169,plaque count,2.6 µM
CCCCCCCC/C=C\CCCCCCCCOCCOP(=O)(O)CO[C@H](CO)Cn1ccc(N)nc1=O,Toledo,plaque count,0.001 µM

The last 5 rows once more:

compound,strain,method,result
OC[C@H]1O[C@@H](n2c(Br)nc3cc(Cl)c(Cl)cc32)[C@H](O)[C@@H]1O,TOWNE,plaque count,0.37 µg/mL
CCCOc1nc(N)nc2c1ncn2/C=C1/C[C@@H]1CO,AD169,plaque count,2 µM
Cc1cn([C@H]2CC3(CO2)COC(C)(C)O3)c(=O)[nH]c1=O,AD169,-,>100 µM
Nc1nc2c(ncn2/C=C2/C[C@@H]2CO)c(=O)[nH]1,AD169,plaque count,2.6 µM
CCCCCCCC/C=C\CCCCCCCCOCCOP(=O)(O)CO[C@H](CO)Cn1ccc(N)nc1=O,Toledo,plaque count,0.001 µM

ECn is the concentration giving n% inhibition of infection, replication or growth. Lines come from different laboratories, so protocols vary.